Measurements reported in patent publication US20140142352A1, “BUTANOL PURIFICATION” (BUTAMAX ADVANCED BIOFUELS LLC, priority 2012, published 2014).

Experiments:
anaerobic inoculum [1] = assay: Acetate Toxicity Assays (ATA); assay type: cell-based
Procedure: For the BMP tests, iBA provided the sole source of substrate over a range of conditions. Feed controls were prepared at organic loadings that spanned the lower and upper range of loadings used in the ATA and BMP tests, and gas production was monitored. Samples were prepared in triplicate with the seed concentration for all test bottles being 2000 mg/L. The feed control and ATA biodegradable synthetic feed composition contained 4000 mg/L acetate and 2000 mg/L propionate. The inorganic nutrient media used was similar to media presented in Table 5.1 of […], Anaerobic Biotechnology for Industrial […], Vanderbilt University, […], Nashville, p 115 (1996). The bottles were maintained at a temperature of 35° C.

anaerobic inoculum [2] = assay: Biological Methane Potential (BMP) test

CC(C)C(=O)O [Isobutyric Acid, isobutyric acid]
COD removed (anaerobic inoculum [1]; ATA-syn + 550 ppm iBA): 98%
TOC removed (anaerobic inoculum [1]; ATA-syn + 550 ppm iBA): 94%
COD removed (anaerobic inoculum [1]; ATA-syn + 825 ppm iBA): 97%
TOC removed (anaerobic inoculum [1]; ATA-syn + 825 ppm iBA): 95%
COD removed (anaerobic inoculum [1]; ATA-syn + 1100 ppm iBA): 98%
TOC removed (anaerobic inoculum [1]; ATA-syn + 1100 ppm iBA): 96%
COD removed (anaerobic inoculum [2]; BMP 550 ppm iBA): 92%
TOC removed (anaerobic inoculum [2]; BMP 550 ppm iBA): 85%
COD removed (anaerobic inoculum [2]; BMP 1100 ppm iBA): 97%
TOC removed (anaerobic inoculum [2]; BMP 1100 ppm iBA): 97%
COD removed (anaerobic inoculum [2]; BMP 1650 ppm iBA): 98%
TOC removed (anaerobic inoculum [2]; BMP 1650 ppm iBA): 92%
COD removed (anaerobic inoculum [2]; BMP 2200 ppm iBA): 98%
TOC removed (anaerobic inoculum [2]; BMP 2200 ppm iBA): 97%
anaerobic biodegradability (anaerobic inoculum [2]; BMP tests): biodegradable
